Data as given in PubChem BioAssay AID624099 (ICCB-Longwood, 2012)

- Assay: 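Knock-downs relieving repression by E2 of an HPV18 LCR luciferase reporter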 (primary screen)
- Cell system: human C33A cervical carcinoma cells (HPV-negative) stably expressing BPV1 E2 and an HPV18 LCR luciferase reporter
- Reagent: siRNA pool against human genes, 40 nM
- Duration: 72 h
- Detection: 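Per-well luciferase luminescence, z-scored on each plate against the plate mean and SD with control wells left out, then averaged across three replicate plates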
- Direction: mean z-score and z-score: higher = stronger reporter signal, weaker E2 silencing
- Active means: 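Hit if mean z-score reaches 2 and two or more of three replicate z-scores also reach 2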
Here is one part, drawn at random, of about 21,000 reagents. 497 of all reagents (2.4%) were called active. 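Higher z means weaker E2 silencing; only reporter increases were scored, and knock-downs that hurt cell survival may mask genuine repressor factors.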 No sequences are given here.

gene symbol,PubChem SID,mean z-score,"z-score, replicate A","z-score, replicate B","z-score, replicate C",activity call
ENPP6 (ectonucleotide pyrophosphatase/phosphodiesterase 6),SID134313562,0.56,0.95,0.42,0.32,inactive
TAF7L (TATA-box binding protein associated factor 7 like),SID134317187,0.29,0.1,0.3,0.47,inactive
LOC389185 (retired record),SID134327400,-0.35,-0.1,-0.9,-0.05,inactive
CLRN1 (clarin 1),SID134325020,1.49,1.03,1.98,1.46,inactive
NSD1 (nuclear receptor binding SET domain protein 1),SID134312171,0.89,0.95,0.91,0.81,inactive
"XKRY (XK related, Y-linked (pseudogene))",SID134329968,-1.09,-1.32,-1.21,-0.74,inactive
VWA5A (von Willebrand factor A domain containing 5A),SID134310747,0.48,0.67,0.45,0.31,inactive
ZNF594 (zinc finger protein 594),SID134325574,1.46,1.17,1.75,1.46,inactive
CLXN (calaxin),SID134320466,0.25,0.5,0.25,0,inactive
ESYT3 (extended synaptotagmin 3),SID134325761,1.61,1.76,1.43,1.63,inactive
FLJ40536 (retired record),SID134329574,-0.27,-0.49,-0.24,-0.07,inactive
HAS2 (hyaluronan synthase 2),SID134316351,0.36,0.46,0.38,0.25,inactive
DNM1 (dynamin 1),SID134310180,0.87,0.9,0.8,0.89,inactive
SGCD (sarcoglycan delta),SID134321234,-0.47,-0.38,-0.36,-0.68,inactive
TFEC (transcription factor EC),SID134314405,-0.18,-0.31,-0.38,0.16,inactive
CTC1 (CST telomere replication complex component 1),SID134318703,0.35,0.35,0.49,0.21,inactive
UBE2C (ubiquitin conjugating enzyme E2 C),SID134310569,0.27,0.22,0.3,0.29,inactive
CREB3L2 (cAMP responsive element binding protein 3 like 2),SID134323154,-1.78,-1.47,-1.74,-2.13,inactive
EXOSC7 (exosome component 7),SID134318336,1.42,2.04,1.1,1.1,inactive

An excerpt from above, showing only “z-score, replicate B”.
ZNF594 (zinc finger protein 594) [SID134325574]: 1.75
CLXN (calaxin) [SID134320466]: 0.25
ESYT3 (extended synaptotagmin 3) [SID134325761]: 1.43
FLJ40536 (retired record) [SID134329574]: -0.24
HAS2 (hyaluronan synthase 2) [SID134316351]: 0.38

Next entries:
gene symbol,PubChem SID,mean z-score,"z-score, replicate A","z-score, replicate B","z-score, replicate C",activity call
FBXO42 (F-box protein 42),SID134325314,0.21,0.25,0.26,0.13,inactive
SARM1 (sterile alpha and TIR motif containing 1),SID134313006,-0.96,-0.62,-1.33,-0.95,inactive
CYB5R1 (cytochrome b5 reductase 1),SID134313467,0.14,0.22,-0.15,0.36,inactive
IZUMO2 (IZUMO family member 2),SID134320791,-0.15,-0.32,0.18,-0.31,inactive
PUM3 (pumilio RNA binding family member 3),SID134329505,1.77,1.66,1.72,1.92,inactive
"H1-1 (H1.1 linker histone, cluster member)",SID134316343,-1.36,-1.55,-1.21,-1.3,inactive
MAJIN (membrane anchored junction protein),SID134326601,0.08,0.13,0.11,0.01,inactive
KLHL10 (kelch like family member 10),SID134319613,-0.55,-0.15,-0.74,-0.76,inactive
DAB1 (DAB adaptor protein 1),SID134313784,-0.28,-0.34,-0.3,-0.2,inactive
GATC (glutamyl-tRNA amidotransferase subunit C),SID134329992,-0.96,-0.68,-1.08,-1.12,inactive
CELSR1 (cadherin EGF LAG seven-pass G-type receptor 1),SID134310909,-0.59,-0.55,-0.37,-0.86,inactive
KCNA1 (potassium voltage-gated channel subfamily A member 1),SID134311628,0.31,0.24,0.44,0.25,inactive
CACNA1B (calcium voltage-gated channel subunit alpha1 B),SID134311541,0.06,-0.08,0.17,0.1,inactive
PSMA7 (proteasome 20S subunit alpha 7),SID134310318,-0.71,-0.91,-0.61,-0.6,inactive
LOC402281 (retired record),SID134327815,-0.92,-0.7,-0.79,-1.26,inactive
IGF1R (insulin like growth factor 1 receptor),SID56478469,0.33,0.28,0.27,0.43,inactive
TMCC2 (transmembrane and coiled-coil domain family 2),SID134318352,-1.18,-1.13,-1.11,-1.31,inactive
KRT72 (keratin 72),SID134319315,-1.08,-0.89,-1.77,-0.58,inactive
B3GNT9,SID134319154,-0.36,-0.3,-0.26,-0.53,inactive
RRAGC (Ras related GTP binding C),SID134321730,1.97,2.18,2.04,1.68,inactive
